For at least one entry, the source does not settle the construct or the ends of the probe. Weaker means in comparison with the reference protein, sequence or condition of that experiment. Protein sequences can lack the tags named with them.
Molecular target: T1, NadR (Salmonella enterica serovar Typhimurium) (UniProt P24518)
T1 sequence (looked up): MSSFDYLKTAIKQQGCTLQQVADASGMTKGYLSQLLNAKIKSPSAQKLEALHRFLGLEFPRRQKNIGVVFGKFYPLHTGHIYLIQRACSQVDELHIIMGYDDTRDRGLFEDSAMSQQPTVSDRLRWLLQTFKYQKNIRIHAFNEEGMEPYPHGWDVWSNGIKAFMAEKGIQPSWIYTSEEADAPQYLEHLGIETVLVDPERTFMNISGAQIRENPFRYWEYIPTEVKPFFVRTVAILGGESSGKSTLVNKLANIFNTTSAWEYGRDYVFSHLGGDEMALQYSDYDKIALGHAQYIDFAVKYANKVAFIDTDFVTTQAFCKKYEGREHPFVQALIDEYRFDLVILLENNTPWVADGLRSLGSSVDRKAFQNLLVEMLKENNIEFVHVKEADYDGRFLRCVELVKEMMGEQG
Assay: EMSA
Settings: EMSA: 50 ng DNA, 20 mM Tris pH 7.5, 100 mM NaCl, 10% glycerol, 4 mM MgCl2, 1% NP-40, 1 mM DTT, 25 uL, 20 min room temperature, 6% native PAGE, 0.5x TBE, SYBR Safe, recombinant protein, residues 1-410, protein details: N-terminal His6 (pET28a), probe letters rebuilt from the primers and the genome

| Sequence | binding result (ATP + NAD, increasing c-di-GMP) | binding result (ATP) |
| --- | --- | --- |
| GCTCATCGTGGCTTCTCGTTTTACTGACTTAACGAAACAACCGAATGAAAGCGTAATAAACGCCACAATCGGTTAATTTGTTTTATATGCTAAACAAGATAGCTGATTCAATAAGGAAAGTCACAATAATTACGTAGCCCCGTATCTGATGGCGGCGTAACGTCTTATCTGGCCTACGTGAGCGGTGCCGTCTGTAGGCCTGAT (double strand) [nadA-pnuC promoter] | binds more weakly | binds more weakly |
| GGTTCTTGTTTAATTTACTAAACATGGTTGCGGCAGATTAGCACTATATGGCGCTAAAAAGCACGTTATGATTTCGCTGGTGTTGTGCTTATTAAACATAAAATAAAAATACGGCGAGAGATAAACGGCAAAAAATATTTTATAGGGCAGGGTGTTAGCGTCGGATTTTGTAGTGAAATAAAGATGCTGTTAGGTTACTC (double strand) [nadB promoter] | binds more weakly | binds more weakly |

From publication PMC12421817, “c-di-GMP regulates bacterial NAD biosynthesis via targeting the transcriptional repressor NadR” (mBio, 2025)
